The record followed here is article PMC4703387, “Identification of the Calmodulin-Binding Domains of Fas Death Receptor” (PLoS ONE, 2016).

This series relates to subtilisin. Description: Proteolysis assay with subtilisin, 24 h. The arrangement: species or system Bacillus licheniformis.

B1: FasDD: intracellular death domain of Fas (protein)
chain: SKYITTIAGVMTLSQVKGFVRKNGVNEAKIDEIKNDNVQDTAEQKVQLLRNWHQLHGKKEAYDTLIKDLKKANLCTLAEKIQTII
With B1, the “stability to subtilisin, in 2:1 Ca^2+/CaM:FasDD complex” value (subtilisin 1:500 (enzyme:complex), 4°C, pH 7.0, SDS-PAGE) is listed as “cleaved to fragment(s) of ~5 kDa”. The “stability to subtilisin, unbound” value (subtilisin 1:500, 4°C, 50 mM HEPES (pH 7.0), 50 mM NaCl, 5 mM CaCl2, SDS-PAGE) is “resistant to proteolysis by subtilisin”.
